Pooled drug test results. Numbers come from NIAID ChemDB, via PubChem.

All rows: whole-cell or culture tests

Inhibition is in % at the dose shown (toxicity tests: loss of growth or viability). Rows are shuffled and stem from different studies. Fold resistance has wild type as its base. ECn is the concentration giving n% inhibition of infection, replication or growth. An empty or dashed field is not shown.

compound | method | read-out | changes | tested at | strain | cells | organism | result
O=C(O)P(=O)(O)O | hybridisation | inhibition | - | 100 µM | AD169 | HFF | Cytomegalovirus | 41.6%
NC(=NCCCc1ccccc1)c1ccc(N2CCN(c3ccccc3)CC2)cc1 | - | inhibition | - | 10 µg/mL | - | - | Pneumocystis carinii | 96%
O=c1[nH]c(=O)n([C@H]2C[C@H](O)[C@@H](CO)O2)cc1I | plaque count | inhibition | - | 10 µg/mL | KANNO | HELF | Varicella zoster virus | 100%
O=c1[nH]c(=O)n([C@H]2C[C@H](O)[C@@H](CO)O2)cc1Br | hybridisation | inhibition | - | 0.053 µg/mL | - | ME | Murine polyoma virus | 31.1%
COc1c(CN(C)C)cccc1C1OC(c2ccncc2)=NN1C(C)=Nc1ccccc1F | - | MIC | - | - | MTCC 2453 | - | Pseudomonas aeruginosa | 25 µg/mL
OC[C@H]1O[C@@H](n2c(Br)nc3cc(Cl)c(Cl)cc32)[C@H](O)[C@@H]1O | plaque count | EC50 | - | - | - | HFF | Guinea pig cytomegalovirus | 2 µM
CCC(CC)N=C(N)c1ccc(N2CCN(c3ccccc3)CC2)cc1 | - | inhibition | - | 10 µg/mL | - | - | Pneumocystis carinii | 93%
CC(C)(O)c1cn(-c2ccc([N+](=O)[O-])cc2)nn1 | broth dilution | inhibition | - | 2048 µg/mL | URM 1150 | - | Candida tropicalis | 0%
CC(C)(C)c1ccc(CSc2ncnc3c2ncn3[C@@H]2O[C@H](CO)[C@@H](O)[C@H]2O)cc1 | - | inhibition | - | 50 µM | RH (WILD TYPE) | - | Toxoplasma gondii | 87.8%
NC(=NCCc1ccc(F)cc1)c1ccc(N2CCN(c3ccccc3)CC2)cc1 | - | inhibition | - | 0.1 µg/mL | - | - | Pneumocystis carinii | 0%
Cc1ccc(-n2cc(C(C)(C)O)nn2)cc1C | broth dilution | inhibition | - | 2048 µg/mL | URM 4804 | - | Candida parapsilosis | 0%
CCOC(=O)/C=C/[C@H](C[C@@H]1CCNC1=O)NC(=O)[C@@H](CC(=O)[C@@H](NC(=O)c1cc(C)on1)C(C)C)Cc1ccc(F)cc1 | cytopathic effect / visual reading | EC50 | - | - | Isolate 25 | OHIO HELA-I | Rhinovirus | 0.02 µg/mL
Nc1nc(=O)n([C@@H]2O[C@H](CO)[C@@H](O)[C@@H]2F)cc1I | plaque count | inhibition | - | 0.1 µg/mL | Ohtomo | HELF | Varicella zoster virus | 100%
CC(C)(O)c1cn(-c2ccccc2)nn1 | broth dilution | inhibition | - | 2048 µg/mL | URM 3716 | - | Candida albicans | 0%
Nc1ccc(S(=O)(=O)c2ccc(N)cc2)cc1 | - | MIC | - | - | DW5 | - | Mycobacterium avium complex | 64 µg/mL
O=c1[nH]c(=O)n([C@@H]2O[C@H](CO)[C@@H](O)[C@@H]2O)cc1/C=C/Cl | plaque count | inhibition | - | 0.0001 µg/mL | YS | HELF | Varicella zoster virus | 0%
CCc1nc2ccc(Cl)cn2c1C(=O)NCc1cc(F)c(N2CCN(c3ccc(OC(F)(F)F)cc3)[C@@H](C)C2)cc1F.Cl | fluorescence | inhibition | - | 0.014 µM | - | - | Mycobacterium avium | 85%
CC1CCC(C(=O)N(c2cc(C#CC(C)(C)C)sc2C(=O)O)C2CCC(O)CC2)CC1 | luciferase | fold resistance | M423T | - | H77 (GT1a) | Huh7 | Hepatitis C virus | 28.3
CSc1nsc(-c2ccc(Cl)cc2Cl)c1C#N | plaque count | EC50 | - | - | TYPE 2 | HEP-2 | Adenovirus | >8 µM
Nc1nc2c(ncn2COC(CO)CO)c(=O)[nH]1 | plaque count | EC90 | - | - | VR5120 (ganciclovir-resistant) | - | Human cytomegalovirus | 72.5 µM
CC(C)N=C(N)c1ccc(N2CCN(c3ccccc3)CC2)cc1 | - | inhibition | - | 10 µg/mL | - | - | Pneumocystis carinii | 90%
Cc1cn([C@@H]2O[C@H](CO)[C@@H](O)[C@@H]2F)c(=O)nc1N | plaque count | inhibition | - | 0.001 µg/mL | Kawaguchi | HELF | Varicella zoster virus | 0%
CSc1nsc(-c2ccccc2Cl)c1C#N | plaque count | EC50 | - | - | TYPE 2 | HEP-2 | Adenovirus | >5 µM
CC(N)C12CC3CC(CC(C3)C1)C2 | ELISA | EC50 | - | - | Influenza A H3N2 isolate 88 | MDCK | Influenza A virus | 4.15 µg/mL
CC1(C)O[C@H]2[C@H](O)[C@@H](N=[N+]=[N-])C=C(c3ccc(C=O)cc3)[C@H]2O1 | broth dilution / turbidity | inhibition | - | 7.8 µg/mL | ATCC 10231 | - | Candida albicans | 24.18%
Nc1nc2c(ncn2COC(CO)CO)c(=O)[nH]1 | plaque count | EC50 | - | - | - | HFF | Rhesus cytomegalovirus | 22 µM
O=c1[nH]c(=O)n([C@H]2C[C@H](O)[C@@H](CO)O2)cc1/C=C/Br | plaque count | inhibition | - | 0.001 µg/mL | OKA | HELF | Varicella zoster virus | 8%
O[C@@H]1[C@H](O)[C@H](O)CO[C@H]1n1c(Br)nc2cc(Cl)c(Cl)cc21 | plaque count | EC50 | - | - | - | HFF | Rat cytomegalovirus | 28.2 µM
CCc1nc2cc(F)ccn2c1C(=O)NCc1ccc(N2CCN(c3ccc(OCC(F)(F)F)nc3)[C@@H](CC)C2)c(F)c1.Cl | fluorescence | inhibition | - | 0.017 µM | - | - | Mycobacterium avium | 85%
CCC(CC)[C@H](NC(C)=O)[C@@H]1[C@H](O)[C@@H](C(=O)O)C[C@H]1N=C(N)N | visual reading | EC50 | - | - | Influenza A/Beijing/32/92 (H3N2) | MDCK | Influenza A virus | 0.07 µM
S=c1cc(-c2ccccc2)s[nH]1 | plaque count | EC50 | - | - | Encephalomyocarditis virus | L929 | Encephalomyocarditis virus | >90 µM
OC[C@H]1O[C@@H](n2cnc3c(SCc4ccc(OC(F)(F)F)cc4)ncnc32)[C@H](O)[C@@H]1O | - | inhibition | - | 25 µM | RH (WILD TYPE) | - | Toxoplasma gondii | 45.5%
CO[C@H]1/C=C/O[C@@]2(C)Oc3c(C)c(O)c4c(O)c(c(/C=N/N5CCN(C6CCCC6)CC5)c(O)c4c3C2=O)NC(=O)/C(C)=C\C=C\[C@H](C)[C@H](O)[C@@H](C)[C@@H](O)[C@@H](C)[C@H](OC(C)=O)[C@@H]1C | - | MIC | - | - | 1023 | - | Mycobacterium avium intracellulare | 1 µg/mL
CCc1nc2ccc(Cl)cn2c1C(=O)NCc1ccc(N2CCN(c3ccc(OC(F)(F)F)cc3F)[C@@H](C)C2)c(F)c1.Cl | fluorescence | inhibition | - | 0.0088 µM | - | - | Mycobacterium avium | 85%
CSc1nsc(-c2ccc(O)cc2)c1C#N | plaque count | EC50 | - | - | Edmonston | HEP-2 | Measles virus | >2 µM
CCOC(=O)c1ccc(OCCC2CCN(c3ccc(C)nn3)CC2)cc1 | neutral red | EC50 | - | - | CH82 (ICAM-1 receptor group 56) | KB | Rhinovirus | 0.022 µM
CSc1nsc(-c2ccncc2)c1C#N | plaque count | EC50 | - | - | Encephalomyocarditis virus | L929 | Encephalomyocarditis virus | >2.5 µM
CCOc1ccc(N2CCC(c3ccc(CNC(=O)c4c(CC)nc5cc(F)ccn45)c(F)c3)CC2)cc1.Cl | fluorescence | inhibition | - | 0.0083 µM | - | - | Mycobacterium avium | 85%
CC(C)(O)c1cn(-c2ccc3ccccc3c2)nn1 | broth dilution | inhibition | - | 2048 µg/mL | URM 3621 | - | Candida parapsilosis | 0%
Nc1nc2c(ncn2COC(CO)CO)c(=O)[nH]1 | - | inhibition | - | 3 µM | - | HEL | Cytomegalovirus | 91%
Nc1nc2c(ncn2COC2COP(=O)(O)OC2)c(=O)[nH]1 | virus yield | EC90 | - | - | Lymphotropic | GPE | Guinea pig herpesvirus | 0.9 µg/mL
COc1c(CN(C)C)cccc1C1OC(c2ccncc2)=NN1C(C)=Nc1ccc(F)cc1 | - | MIC | - | - | MTCC 2453 | - | Pseudomonas aeruginosa | 6.25 µg/mL
Cc1cn2c(C(=O)NCc3ccc(N4CCN(c5ccc(OC(F)(F)F)cc5)C(C)(C)C4)c(F)c3)c(C)nc2s1 | fluorescence | inhibition | - | 0.19 µM | - | - | Mycobacterium avium | 85%

The last 5 rows once more:

{"compound": "CC(C)(O)c1cn(-c2ccc3ccccc3c2)nn1", "method": "broth dilution", "read-out": "inhibition", "tested at": "2048 µg/mL", "strain": "URM 3621", "organism": "Candida parapsilosis", "result": "0%"}
{"compound": "Nc1nc2c(ncn2COC(CO)CO)c(=O)[nH]1", "read-out": "inhibition", "tested at": "3 µM", "cells": "HEL", "organism": "Cytomegalovirus", "result": "91%"}
{"compound": "Nc1nc2c(ncn2COC2COP(=O)(O)OC2)c(=O)[nH]1", "method": "virus yield", "read-out": "EC90", "strain": "Lymphotropic", "cells": "GPE", "organism": "Guinea pig herpesvirus", "result": "0.9 µg/mL"}
{"compound": "COc1c(CN(C)C)cccc1C1OC(c2ccncc2)=NN1C(C)=Nc1ccc(F)cc1", "read-out": "MIC", "strain": "MTCC 2453", "organism": "Pseudomonas aeruginosa", "result": "6.25 µg/mL"}
{"compound": "Cc1cn2c(C(=O)NCc3ccc(N4CCN(c5ccc(OC(F)(F)F)cc5)C(C)(C)C4)c(F)c3)c(C)nc2s1", "method": "fluorescence", "read-out": "inhibition", "tested at": "0.19 µM", "organism": "Mycobacterium avium", "result": "85%"}